For one data set, the target named is T1, His6-MBP-Ssc-CdnE03 (UniProt P0DXA6).
T1 sequence (looked up, limits assumed): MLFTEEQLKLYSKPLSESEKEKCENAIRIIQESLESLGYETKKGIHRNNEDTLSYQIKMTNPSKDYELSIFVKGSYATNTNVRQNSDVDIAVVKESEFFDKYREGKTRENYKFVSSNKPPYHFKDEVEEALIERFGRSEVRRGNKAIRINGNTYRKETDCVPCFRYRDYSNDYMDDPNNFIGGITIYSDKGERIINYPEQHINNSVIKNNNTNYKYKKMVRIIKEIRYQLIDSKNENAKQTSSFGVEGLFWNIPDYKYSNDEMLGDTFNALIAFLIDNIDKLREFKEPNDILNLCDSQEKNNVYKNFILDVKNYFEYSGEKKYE
The experiment in a line: pull-down. The note with it: total RNA of infected cells, bound RNA sequenced; recombinant protein; protein details: His6-MBP.

The next data set concerns the target T2, Ssc-CdnE03 (UniProt P0DXA6).
T2 sequence (looked up, limits assumed): T1 sequence (looked up, limits assumed)
As to the kind of experiment: EMSA. Conditions: EMSA: 50 mM CAPSO pH 9.4, 50 mM KCl, 5 mM Mg acetate, 1 mM DTT, 4 C 25 min, 2% agarose in 1x TB, pull-down on cobalt resin, recombinant protein. (Mobility shift assays separate free from complexed probe on a gel.)

For at least one entry, the source does not settle the construct or the ends of the probe. Tags and fusion partners may be left off the protein sequences shown.

With “AGAGGAGAACCUCAAGAGGCUUACAGUAAGAAAUAUGACCAUUUAAACGAUGAAGUGGAAAAAGAGGUUACUUACACAAUCACACCAACUUUUGAAGAGCGUCAGAGAUCUAUUGACCACAUACUAAAAGUACAUGGUGCGUAUAUCGAUAAAAAAGAAAUUACUCAGAAGAAUAUUGAGAUUAAUAUUGGUGAGUACGAUGACGAAAGUUAAAUUAAACUUUAACAAACCAUCUAAUGUUUUCAAUAGAAACAUAUUCGAAAUACUAACCAAUUACGAUAACUUCACUGAAGUACAUUACGGUGGAGGUUCGAGCGGUAAGUCUCACGGCGUUAUACAAAAAGUUGUACUUAAAGCAUUGCAAGACUGGAAAUAUCCUAGGCGUAUACUAUGGCUUAGA [cabRNA PhiNM1gamma6]”, the binding result with His6-MBP-Ssc-CdnE03 is given as “binds”.
Regarding “AGAGGAGAACCUCAAGAGGCUUACAGUAAGAAAUAUGACCAUUUAAACGAUGAAGUGGAAAAAGAGGUUACUUACACAAUCACACCAACUUUUGAAGAGCGUCAGAGAUCUAUUGACCACAUACUAAAAGUUCAUGGUGCGUAUAUCGACAAAAAAGAAAUUACUCAGAAGAAUAUUGAGAUUAAUAUUGGUGAGUACGAUGACGAAAGUUAAAUUAAACUUUAACAAACCAUCUAAUGUUUUCAACAGAAACAUAUUCGAAAUACUAACCAAUUACGAUAACUUCACUGAAGUACAUUACGGUGGAGGUUCGAGUGGUAAGUCUCACGGCGUUAUACAAAAAGUUGUACUUAAAGCAUUGCAAGACUGGAAAUAUCCUAGGCGUAUACUAUGGCUUAGA [cabRNA (IVT, sense, folded)]”, the binding result with Ssc-CdnE03 (1 uM RNA, 0, 1, 10 uM protein) is “binds”.
In the case of “AGAGGAGAACCUCAAGAGGCUUACAGUAAGAAAUAUGACCAUUUAAACGAUGAAGUGGAAAAAGAGGUUACUUACACAAUCACACCAACUUUUGAAGAGCGUCAGAGAUCUAUUGACCACAUACUAAAAGUUCAUGGUGCGUAUAUCGACAAAAAAGAAAUUACUCAGAAGAAUAUUGAGAUUAAUAUUGGUGAGUACGAUGACGAAAGUUAAAUUAAACUUUAACAAACCAUCUAAUGUUUUCAACAGAAACAUAUUCGAAAUACUAACCAAUUACGAUAACUUCACUGAAGUACAUUACGGUGGAGGUUCGAGUGGUAAGUCUCACGGCGUUAUACAAAAAGUUGUACUUAAAGCAUUGCAAGACUGGAAAUAUCCUAGGCGUAUACUAUGGCUUAGA [cabRNA (from infected cells, 80alpha-vir)]”, the binding result with His6-MBP-Ssc-CdnE03 is “binds”.
For “AUGACUAAAAAGAAAUAUGGAUUAAAAUUAUCAACAGUUCGAAAGUUAGAAGAUGAGUUGUGUGAUUAUCCUAAUUAUCAUAAGCAACUCGAAGAUUUAAGAAGUGAAAUAAUGACACCAUGGAUUCCAACAGAUACAAAUAUAGGCGGGGAGUUUGUACCGUCUAAUACAUCGAAAACAGAAAUGGCAGUAACUAAUUAUCUUUGUAGUAUACGAAGAGGUAAAAUCCUUGAGUUUAAGAGCGCUAUUGAACGUAUAAUCAACACAUCAAGUAGGAAAGAACGCGAAUUCAUUCAAGAGUAUUAUUUUAAUAAAAAGGAAUUAGUGAAAGUUUGUGAUGACAUACACAUUUCUGAUAGAACUGCUCAUAGAAUCAAAAGGAAAAUCAUAUCUAGAUUGGCGGAAGAGUUAGGGGAAGAGUGAAAUUGGCAGUAAAGUGGCAGUUUUUGAUACCUAAAAUGAGAUAUUAUGAUAGUGUAGGAUAUUGACUAUCUUACUGCGUUUCCCUUAUCGCAAUUAGGAAUAAAGGAUCUAUGUGGGUUGGCUGAUUAUAGCCAAUCCUUUUUUAAUUUUAAAAAGCGUAUAGCGCGAGAGUUGGUGGUAAAUGAAAUGAACGAAAAACAAAAGAGAUUCGCAGAUGAAUAUAUAAUGAAUGGAUGUAAUGGUAAAAAAGCAGCAAUUUCAGCAGGUUAUAGUAAGAAAACAGCAGAGUCUUUAGCAAGUCGAUUGUUAAGAAAUGUUAAUGUUUCGGAAUAUAUUAAAGAACGAUUAGAACAGAUACAAGAAGAGCGUUUAAUGAGCAUUACAGAAGCUUUAGCGUUAUCUGCUUUUAUUGCUAGAGGAGAACCUCAAGAGGCUUACAGUAAGAAAUAUGACCAUUUAAACGAUGAAGUGGAAAAAGAGGUUACUUACACAAUCACACCAACUUUUGAAGAGCGUCAGAGAUCUAUUGACCACAUACUAAAAGUUCAUGGUGCGUAUAUCGACAAAAAAGAAAUUACUCAGAAGAAUAUUGAGAUUAAUAUUGGUGAGUACGAUGACGAAAGUUAAAUUAAACUUUAACAAACCAUCUAAUGUUUUCAACAGAAACAUAUUCGAAAUACUAACCAAUUACGAUAACUUCACUGAAGUACAUUACGGUGGAGGUUCGAGUGGUAAGUCUCACGGCGUUAUACAAAAAGUUGUACUUAAAGCAUUGCAAGACUGGAAAUAUCCUAGGCGUAUACUAUGGCUUAGA [escaper (long) cabRNA, terS S74F, 1237 nt]”, the binding result is recorded as “binds” with His6-MBP-Ssc-CdnE03 and “binds” with Ssc-CdnE03 (similar level to cabRNA, small preference for the short form, 1 uM RNA).

Source of the values: publication PMC10686824, “Bacterial cGAS senses a viral RNA to initiate immunity”.
